Assay [1] concerns the target Ricin toxin A-chain (RTA) (Ricinus communis, UniProt P02879).
In assay [2] the test system is RTA. The following applies: cited from earlier work.

Structures are written as SMILES.

What is called IC50 is the point on the concentration scale where inhibition reaches its midpoint. On to `Nc1nc2nc(C(=O)NCC(=O)NC(Cc3ccccc3)C(=O)O)cnc2c(=O)[nH]1` (stereo not shown), for which the IC50 was 30.8 µM in assay [1] and 20 µM in assay [2].

As for `Nc1nc2nc(C(=O)NCC(=O)NC(Cc3ccccc3)C(=O)NC(Cc3ccccc3)C(=O)O)cnc2c(=O)[nH]1` (stereo not shown), the IC50 in assay [2] was 15 µM.

Consider `Nc1nc2nc(C(=O)NCC(=O)NCC(=O)O)cnc2c(=O)[nH]1`, for which, in assay [2], the IC50 is 400 µM.
